Values of other authors as cited in US20240377385A1, “METHODS AND COMPOSITIONS OF MATTER FOR TREATING CANCER AND PREDICTING RESPONSE TO THERAPY” (ICCA INC., priority 2023, published 2024).

Test system: CD163-positive M2 macrophages
Details: tumor cells loaded with low concentrations of cetuximab; cited from earlier work

cetuximab
IL-10 and VEGF production: further augmentation
